Source: the supplement of paper PMC3578754
Fold change is the IC50 on the isolate divided by the IC50 on a reference virus; 1 = unchanged, higher = more resistant. Changes are given against the subtype B consensus. No active / inactive call. The values were gathered from many studies (numbered anew) with different assays, which the source does not name. Most viruses are clinical isolates; some are laboratory strains or clones with known resistance changes. Isolates with mixed residues are left out; stretches that were not sequenced show no change. Round top values that many isolates share are read here as limits; other very high values and 0.1 may be limits too.

Key:
Experiment in all cases: fold change of IC50 against reference virus; higher = more resistant
delavirdine = compound: CC(C)Nc1cccnc1N1CCN(C(=O)c2cc3cc(NS(C)(=O)=O)ccc3[nH]2)CC1 [delavirdine]
Protocol: (§1)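 Cell-culture drug susceptibility tests of virus bearing the reverse transcriptase of each isolate, gathered from many studies.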

nevirapine = compound: Cc1ccnc2c1NC(=O)c1cccnc1N2C1CC1 [nevirapine]
Protocol: as §1

efavirenz = compound: O=C1Nc2ccc(Cl)cc2[C@@](C#CC2CC2)(C(F)(F)F)O1 [efavirenz]
Protocol: as §1

Test System | fold change of IC50 against reference virus (delavirdine) | fold change of IC50 against reference virus (nevirapine) | fold change of IC50 against reference virus (efavirenz)
HIV-1 isolate 533 (reverse transcriptase changes: V35T V60I D121H K122E I135T K173L Q174K D177E V179I Y181C T200A Q207A R211S V245K D250E T286A E291D V292I I293V E312D I326V, study 14) | 70 | 200 | 1.4
HIV-1 isolate 592 (reverse transcriptase changes: K11T K20R V21I V35T T39K V60I K122E D123N K173A D177G V179I Y181C T200A I202V Q207A R211K V245Q E248D T286A E291D V292I I293V P294T E312D, study 14) | 21 | 122 | 0.8
HIV-1 isolate 1401 (reverse transcriptase changes: K103N K122E E169D T200E Q207E, study 25) | 150 | 50 | 34
HIV-1 isolate 417 (reverse transcriptase changes: K102Q S162C P236L K277R, study 53) | 53 | 2 | 1
HIV-1 isolate 955 (reverse transcriptase changes: A98G K102Q S162C Y181C K277R, study 53) | 190 | 680 | 7
HIV-1 isolate 582 (reverse transcriptase changes: K102Q V108I S162C K277R, study 110) | 1.3 | 3 | 1.7
HIV-1 isolate 184 (reverse transcriptase changes: K102Q S162C G190S K277R, study 110) | 0.4 | 206 | 47
HIV-1 isolate 56 (reverse transcriptase changes: K122E V179F Y181C F214L A272P K277R A376T A400T D460N S468T H483Y K512Q S519N, study 85) | – | – | 9.4
HIV-1 isolate 1036 (reverse transcriptase changes: K102Q K103N S162C K277R I293V R358K V435I S468P K550G, study 27) | – | – | 33
HIV-1 isolate 1323 (reverse transcriptase changes: E138Y, study 50) | 0.8 | – | 0.5
HIV-1 isolate 1201 (reverse transcriptase changes: L100I K103N K122E F214L A272P K277R A376T A400T K451R V458L D460N R461K S468P D471N H483Y K512Q S519N E529Q V559I, study 27) | – | – | 8000
HIV-1 isolate 1120 (reverse transcriptase changes: K102Q K103N S162C Y181C K277R I293V R358K V435I S468P K550G, study 27) | – | – | 130
HIV-1 isolate 327 (reverse transcriptase changes: K101E K102Q K103N S162C K277R I293V R358K V435I S468P K550G, study 27) | – | – | ≥ 500
HIV-1 isolate 527 (reverse transcriptase changes: K102Q S162C V179D K277R I293V R358K V435I S468P K550G, study 27) | – | – | 1
HIV-1 isolate 351 (reverse transcriptase changes: E138Q, study 50) | 5 | – | 2.3
HIV-1 isolate 1104 (reverse transcriptase changes: L100I D123E G141R R172K D177E V179D Y181C T200I Q207E R211K I293V P294Q E297K I375V V435I K550R A554T, study 140) | – | – | 1000
HIV-1 isolate 1094 (reverse transcriptase changes: L100I K101E K102Q S162C K277R I293V R358K V435I S468P K550G, study 27) | – | – | ≥ 500
HIV-1 isolate 981 (reverse transcriptase changes: E138K, study 50) | 6.3 | – | 1.4
HIV-1 isolate 755 (reverse transcriptase changes: none, study 50) | 1 | – | 1
HIV-1 isolate 1349 (reverse transcriptase changes: K101E K102Q S162C K277R I293V R358K V435I S468P K550G, study 27) | – | – | 8
HIV-1 isolate 740 (reverse transcriptase changes: K102Q S162C Y188L K277R I293V R358K V435I S468P K550G, study 27) | – | – | ≥ 500
HIV-1 isolate 1107 (reverse transcriptase changes: A98G K102Q S162C K277R I293V R358K V435I S468P K550G, study 27) | – | – | 4
HIV-1 isolate 1053 (reverse transcriptase changes: D123E G141R R172K D177E V179D T200I Q207E R211K I293V P294Q E297K I375V V435I K550R A554T, study 140) | – | – | 11
